Assay results taken from US20230045284.

Columns and labels:
[1] = target: GST-HRas (rGST-HRas), P01112
GST-Rab4A, P20338 = target: T1, GST-Rab4A, P20338
T1 chain: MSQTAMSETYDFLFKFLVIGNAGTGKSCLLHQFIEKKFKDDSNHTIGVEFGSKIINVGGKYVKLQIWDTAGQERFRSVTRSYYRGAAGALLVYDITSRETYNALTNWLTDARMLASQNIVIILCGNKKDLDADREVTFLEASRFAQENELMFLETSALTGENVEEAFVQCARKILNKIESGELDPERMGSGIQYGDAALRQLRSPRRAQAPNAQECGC

GST-Rab4B, P61018 = target: T2, GST-Rab4B, P61018
T2 chain: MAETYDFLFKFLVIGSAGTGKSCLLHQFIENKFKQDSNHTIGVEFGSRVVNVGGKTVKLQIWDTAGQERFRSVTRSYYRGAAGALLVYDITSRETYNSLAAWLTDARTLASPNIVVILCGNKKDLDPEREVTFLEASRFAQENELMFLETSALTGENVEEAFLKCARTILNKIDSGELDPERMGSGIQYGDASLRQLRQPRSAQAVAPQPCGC

GST-Rab5A, P20339 = target: T3, GST-Rab5A, P20339
T3 chain: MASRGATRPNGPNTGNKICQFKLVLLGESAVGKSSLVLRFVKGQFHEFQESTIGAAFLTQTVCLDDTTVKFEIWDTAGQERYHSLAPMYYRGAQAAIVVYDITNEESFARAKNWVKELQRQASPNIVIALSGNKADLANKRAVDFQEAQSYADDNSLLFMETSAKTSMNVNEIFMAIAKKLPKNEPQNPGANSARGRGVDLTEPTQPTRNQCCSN

GST-Rap1A, P62834 = target: T4, GST-Rap1A, P62834
T4 chain: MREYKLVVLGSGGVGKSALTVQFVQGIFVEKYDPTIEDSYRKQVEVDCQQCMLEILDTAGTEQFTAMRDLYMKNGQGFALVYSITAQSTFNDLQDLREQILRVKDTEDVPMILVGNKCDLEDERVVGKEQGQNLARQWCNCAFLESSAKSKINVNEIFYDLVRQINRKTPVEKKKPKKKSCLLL

GST-RheB2, Q8TAI7 = target: T5, GST-RheB2, Q8TAI7
T5 chain: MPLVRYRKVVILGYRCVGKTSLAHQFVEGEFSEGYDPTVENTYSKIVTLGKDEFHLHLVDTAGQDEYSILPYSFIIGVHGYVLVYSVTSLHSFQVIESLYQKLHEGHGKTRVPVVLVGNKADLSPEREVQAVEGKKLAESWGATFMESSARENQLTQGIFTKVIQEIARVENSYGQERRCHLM

GST-Rit2, Q99578 = target: T6, GST-Rit2, Q99578
T6 chain: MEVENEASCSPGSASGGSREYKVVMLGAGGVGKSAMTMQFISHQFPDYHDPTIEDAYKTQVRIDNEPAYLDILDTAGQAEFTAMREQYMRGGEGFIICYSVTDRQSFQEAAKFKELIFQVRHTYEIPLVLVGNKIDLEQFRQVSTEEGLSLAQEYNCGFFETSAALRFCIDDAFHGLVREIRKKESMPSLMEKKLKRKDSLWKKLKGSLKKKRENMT

[2] = target: Recombinant 6xHis-tagged HRas (rHRas; NP_001123914.1), P01112
[3] = target: Recombinant 6xHis-tagged NRas (rNRas; NP_002515.1), P01111

B1: Recombinant 6xHis-tagged DUF5Vv (rDUF5Vv; V. vulnificus CMCP6 MARTXVv Q3596-L4089) (protein)
chain: QELKERAKVFAKPIGASYQGILDQLDLVHQAKGRDQIAASFELNKKINDYIAEHPTSGRNQALTQLKEQVTSALFIGKMQVAQAGIDAIAQTRPELAARIFMVAIEEANGKHVGLTDMMVRWANEDPYLAPKHGYKGETPSDLGFDAKYHVDLGEHYADFKQWLETSQSNGLLSKATLDESTKTVHLGYSYQELQDLTGAESVQMAFYFLKEAAKKADPISGDSAEMILLKKFADQSYLSQLDSDRMDQIEGIYRSSHETDIDAWDRRYSGTGYDELTNKLASATGVDEQLAVLLDDRKGLLIGEVHGSDVNGLRFVNEQMDALKKQGVTVIGLEHLRSDLAQPLIDRYLATGVMSSELSAMLKTKHLDVTLFENARANGMRIVALDANSSARPNVQGTEHGLMYRAGAANNIAVEVLQNLPDGEKFVAIYGKAHLQSHKGIEGFVPGITHRLDLPALKVSDSNQFTVEQDDVSLRVVYDDVANKPKITFKGSL
B1 was tested, and the “in vitro processing of 10 µM GST-GTPase by 10 µM rDUF5Vv for 10 min” value [1] was “Only the positive samples, HRas and Rap1A, are duplicated in FIG. 26F”, the “in vitro cleavage of rGST-GTPase, SDS-PAGE” value (“in vitro cleavage” for short) (GST-Rab11A, P62491) was “None of the other GTPase was cleaved by DUF5Vv” and the “in vitro cleavage” value (GST-Rab4A, P20338) was “None of the other GTPase was cleaved by DUF5Vv”. The “in vitro cleavage” value (GST-Rab4B, P61018) was “None of the other GTPase was cleaved by DUF5Vv”, the “in vitro cleavage” value (GST-Rab5A, P20339) was “None of the other GTPase was cleaved by DUF5Vv” and the “in vitro cleavage” value (GST-Rac1, P63000) was “None of the other GTPase was cleaved by DUF5Vv”. For the same protein, the “in vitro cleavage” value (GST-Ran, P62826) was “None of the other GTPase was cleaved by DUF5Vv”, the “in-vitro cleavage of GST-fusion GTPases” value (GST-Rap1A, P62834) was “only Rap1 was confirmed as a DUF5Vv substrate, with cleavage occurring after Y32” and the “in vitro cleavage” value (GST-RheB2, Q8TAI7) was “None of the other GTPase was cleaved by DUF5Vv”. The “in vitro cleavage” value (GST-RhoB, P62745) was “None of the other GTPase was cleaved by DUF5Vv”, the “in vitro cleavage” value (GST-RhoC, P08134) was “None of the other GTPase was cleaved by DUF5Vv” and the “in vitro cleavage” value (GST-RhoG, P84095) was “None of the other GTPase was cleaved by DUF5Vv”. The “in vitro cleavage” value (GST-Rit2, Q99578) was “None of the other GTPase was cleaved by DUF5Vv”, the “in-vitro cleavage reaction of purified proteins” value [2] was “rHRas and rNRas were likewise efficiently processed by purified rDUF5Vv” and the “in-vitro cleavage reaction of purified proteins” value [3] was “rHRas and rNRas were likewise efficiently processed by purified rDUF5Vv”.
